Measured values from several laboratories, pooled; numbers as filed in NIAID ChemDB.

All rows: whole-cell or culture tests; species: Cryptococcus neoformans; read-out: MIC

Two numbers with a dash give a range or band. Neighbouring rows are from separate reports. An empty or dashed field is not shown.

SMILES,strain,value
CCCCCCCCOCCCCC(=O)O,-,300 µM
C=CC[C@@H]1/C=C(/C)C[C@H](C)C[C@H](OC)[C@H]2O[C@@](O)(C(=O)C(=O)N3CCCC[C@H]3C(=O)O[C@H](/C(C)=C/[C@@H]3CC[C@@H](O)[C@H](OC)C3)[C@H](C)[C@@H](O)CC1=O)[C@H](C)C[C@@H]2OC,H99 ΔFRR1 mutant,>25 µg/mL
COc1cccc(C(CC(=O)c2ccccc2)C(C#N)C#N)c1OC,ATCC 32264,>50 µg/mL
C=C1CO[C@@]2(O[C@H]3C[C@H]4[C@@H]5CC=C6C[C@@H](O)[C@H](O)[C@@H](O[C@@H]7O[C@H](CO)[C@H](O)[C@H](O)[C@H]7O)[C@]6(C)[C@H]5CC[C@]4(C)[C@H]3[C@@H]2C)[C@@H](O)C1,-,≥20 µg/mL
N#[N+]c1nc(-c2ccc([N+](=O)[O-])cc2)[nH]c1C(=O)N1CCCC1,L29,50 µg/mL
O=[N+]([O-])c1ccc2c(c1)CCc1snnc1-2,-,12.5 µg/mL
C[C@@H]1CC[C@@]2(OC1)O[C@H]1C[C@H]3[C@@H]4CC=C5C[C@@H](O)[C@H](O)[C@@H](O[C@@H]6OC[C@@H](O)[C@H](O)[C@H]6O[C@@H]6O[C@@H](C)[C@H](O)[C@@H](O)[C@H]6O)[C@]5(C)[C@H]4CC[C@]3(C)[C@H]1[C@@H]2C,-,≥20 µg/mL
N#[N+]c1nc(-c2ccccc2F)[nH]c1C(=O)N1CCCC1,L29,200 µg/mL
O=[N+]([O-])c1cccc2c1CCc1[se]nnc1-2,-,25 µg/mL
COc1cccc(/C=C/C(=O)c2ccccc2)c1OC,ATCC 32264,>50 µg/mL
CCN1C2=NC[C@H](Cc3ccccc3)N2C[C@H]1C1CCCCC1,ATCC 32045,62–125 µg/mL
COc1ccc(/C=C/C(=O)c2ccccc2)cc1OC,ATCC 32264,>50 µg/mL
CCN1C2=NC[C@H](Cc3ccccc3)N2C[C@H]1CC1CCCCC1,ATCC 32045,62–125 µg/mL
CC(C/C=C/C=C/CC/C=C\C=C\CCC(C)(C)C)C(O)C(O)C(O)C(O)C(O)C1OC(=O)C(O)C1O,IAM 4514,3.1 µg/mL
c1ccc2c(c1)cc1[nH]c3ccccc3c1[n+]2CC1CCCCC1,ATCC 52657,62.5 µg/mL
Cc1ccc(/C=C/C(=O)c2ccccc2)cc1,ATCC 32264,>50 µg/mL
c1ccc(-c2ccc(C(c3ccccc3)n3ccnc3)cc2)cc1,3 strains,0.67 µg/mL
C1CCC(C[C@@H]2CN=C3N2C[C@H](C2CCCCC2)N3CCC23CC4CC(CC(C4)C2)C3)CC1,ATCC 32045,4–8 µg/mL
CC[C@H]1OC(=O)C=C2[C@@]13O[C@@H]3C1OC(=O)[C@@]3(C)CCC[C@@]2(C)[C@@H]13,ATCC90112,8 µg/mL
CCN1C2=NC[C@@H](C3CCCCC3)N2C[C@@H]1Cc1ccccc1,ATCC 32045,62–125 µg/mL
COc1cc(/C=C/[N+](=O)[O-])cc(OC)c1OC,24 isolates,4–16 µg/mL
O=C(/C=C/c1ccc(Cl)cc1Cl)c1ccccc1,ATCC 32264,>50 µg/mL
C[C@H]1[C@@H](OCCCCO)O[C@@H]2O[C@]3(C)CC[C@H]4[C@H](C)CC[C@@H]1C24OO3,ATCC 90113,>50 µg/mL
C=C(CCC1(OC)O[C@H]2C[C@H]3[C@@H]4CC=C5C[C@@H](O)[C@H](O)[C@@H](O[C@@H]6OC[C@@H](O)[C@H](O)[C@H]6O)[C@]5(C)[C@H]4CC[C@]3(C)[C@H]2[C@@H]1C)CO[C@@H]1O[C@H](CO)[C@@H](O)[C@H](O)[C@H]1O,-,≥20 µg/mL
O=[N+]([O-])c1cccc2c1CCc1snnc1-2,-,3.12 µg/mL
CO/C1=C\C(C)=C\[C@@H](C)[C@@H](O)[C@@H](C)C/C(C)=C/C=C/[C@H](OC)[C@@H]([C@@H](C)[C@@H](O)[C@H](C)[C@@]2(O)C[C@@H](O)[C@H](C)[C@@H](C(C)C)O2)OC1=O,H99 ΔFRR1 mutant,>62.2 µg/mL
COc1cccc(C(=O)/C=C/c2cc3ccccc3cc2OC)c1,ATCC 32264,>50 µg/mL
CN[C@@H]1[C@H](O[C@@H]2OC[C@@H](O)[C@H](O)[C@H]2O)[C@@H](O)[C@H](O[C@H]2c3cc(C)c(C(=O)N[C@@H](CN)C(=O)O)c(O)c3-c3c(cc4c(c3O)C(=O)c3cc(OC)cc(O)c3C4=O)[C@@H]2O)O[C@@H]1C,IAM 4514,>100 µg/mL
C1CCC(C[C@@H]2CN3C(=NC[C@@H]3CC3CCCCC3)N2CCC23CC4CC(CC(C4)C2)C3)CC1,ATCC 32045,4–8 µg/mL
Cc1cccc(N(C)C(=S)Oc2ccc3ccccc3c2)c1,4 strains,>100 µg/mL
CCN1C2=NC[C@H](CC3CCCCC3)N2C[C@@H]1Cc1ccccc1,ATCC 32045,62–125 µg/mL
C[C@@]12CCC[C@]3(C)C4=CC(=O)OC(O)[C@]45O[C@@H]5C(OC1=O)[C@@H]23,ATCC90112,>64 µg/mL
COc1ccc(OC)c(C(=O)/C=C/c2cc3cc(OC)c(OC)cc3nc2Cl)c1,ATCC 32264,>50 µg/mL
C[C@@H]1CC[C@@]2(OC1)O[C@H]1C[C@H]3[C@@H]4CC=C5C[C@@H](O)[C@H](O)[C@@H](O[C@@H]6OC[C@@H](O)[C@H](O)[C@H]6O[C@@H]6O[C@@H](C)[C@H](O)[C@@H](O)[C@H]6O)[C@]5(C)[C@H]4CC[C@]3(C)[C@@]1(O)[C@@H]2C,-,10 µg/mL
CC[C@H]1/C=C(\C)[C@H](O)[C@H](C)C[C@H](OC)[C@H]2O[C@@](O)(C(=O)C(=O)N3CCCC[C@H]3C(=O)O[C@H](/C(C)=C/[C@@H]3CC[C@@H](O)[C@H](OC)C3)[C@H](C)[C@@H](O)CC1=O)[C@H](C)C[C@@H]2OC,H99,>42 µg/mL
CN[C@@H]1[C@H](O[C@@H]2OC[C@@H](O)[C@H](O)[C@H]2O)[C@@H](O)[C@H](O[C@H]2c3cc(C)c(C(=O)NCCC(=O)O)c(O)c3-c3c(cc4c(c3O)C(=O)c3cc(OC)cc(O)c3C4=O)[C@@H]2O)O[C@@H]1C,IAM 4514,>100 µg/mL
C1CCC(C[C@H]2CN=C3N2C[C@@H](C2CCCCC2)N3CCC23CC4CC(CC(C4)C2)C3)CC1,ATCC 32045,8–16 µg/mL
CN[C@@H]1[C@H](O[C@@H]2OC[C@@H](O)[C@H](O)[C@H]2O)[C@@H](O)[C@H](O[C@H]2c3cc(C)c(C(=O)N[C@H](CN)C(=O)O)c(O)c3-c3c(cc4c(c3O)C(=O)c3cc(OC)cc(O)c3C4=O)[C@@H]2O)O[C@@H]1C,IAM 4514,1.6 µg/mL
COc1cc(O)c2c(c1)C(=O)c1c(cc3c(c1O)-c1c(cc(C)c(C(=O)NC(CO)C(=O)O)c1O)[C@H](OC1OC(C)C(O)C(OC4OCC(O)C(O)C4O)C1O)C3O)C2=O,D49,3.1 µg/mL
CCCCCCCCCCCCCCCC(=O)NC1CC(O)C(O)NC(=O)C2C(O)C(C)CN2C(=O)C(C(O)CC(N)=O)NC(=O)C(C(O)C(O)c2ccc(O)c(S(=O)(=O)O)c2)NC(=O)C2CC(O)CN2C(=O)C(C(C)O)NC1=O,YC203,50 µg/mL
COc1cc2cc(/C=C/C(=O)c3ccccc3)c(Cl)nc2cc1OC,ATCC 32264,>50 µg/mL
C[C@H]1OC(Oc2ccc3c(=O)c(-c4ccc(O)cc4)coc3c2)[C@@H](O)[C@@H](O)[C@H]1O,B42419,7 µg/mL
C[C@H]1[C@@H](Oc2ccc(S)cc2)O[C@@H]2O[C@]3(C)CC[C@H]4[C@H](C)CC[C@@H]1C24OO3,ATCC 90113,>50 µg/mL
N#[N+]c1nc(-c2cccc(Cl)c2)[nH]c1C(=O)N1CCCC1,L29,100 µg/mL
CCCCCCCCCOCCCC(=O)O,-,300 µM
C=C1[C@@H](OCCO)O[C@@H]2O[C@]3(C)CC[C@H]4[C@H](C)CC[C@@H]1C24OO3,ATCC 90113,>50 µg/mL
c1ccc2c(c1)cc1[nH]c3ccccc3c1[n+]2CC1CCC1,ATCC 52657,15.6 µg/mL
CN[C@@H]1[C@H](O[C@@H]2OC[C@@H](O)[C@H](O)[C@H]2O)[C@@H](O)[C@H](O[C@H]2c3cc(C)c(C(=O)NCCN)c(O)c3-c3c(cc4c(c3O)C(=O)c3cc(OC)cc(O)c3C4=O)[C@@H]2O)O[C@@H]1C,IAM 4514,>100 µg/mL
CCC[n+]1c2ccccc2cc2[nH]c3ccccc3c21,ATCC 52657,31.2 µg/mL
C[C@H]1[C@@H](Oc2ccc(O)cc2)O[C@@H]2O[C@]3(C)CC[C@H]4[C@H](C)CC[C@@H]1C24OO3,ATCC 90113,>50 µg/mL

Repeating the final 4 entries:

SMILES | strain | value
c1ccc2c(c1)cc1[nH]c3ccccc3c1[n+]2CC1CCC1 | ATCC 52657 | 15.6 µg/mL
CN[C@@H]1[C@H](O[C@@H]2OC[C@@H](O)[C@H](O)[C@H]2O)[C@@H](O)[C@H](O[C@H]2c3cc(C)c(C(=O)NCCN)c(O)c3-c3c(cc4c(c3O)C(=O)c3cc(OC)cc(O)c3C4=O)[C@@H]2O)O[C@@H]1C | IAM 4514 | >100 µg/mL
CCC[n+]1c2ccccc2cc2[nH]c3ccccc3c21 | ATCC 52657 | 31.2 µg/mL
C[C@H]1[C@@H](Oc2ccc(O)cc2)O[C@@H]2O[C@]3(C)CC[C@H]4[C@H](C)CC[C@@H]1C24OO3 | ATCC 90113 | >50 µg/mL